Laboratory results: PubChem BioAssay AID1259414 (Drosophila RNAi Screening Center, 2018)

- Screen: 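Genome-wide screen for host control of endosymbiont load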 (primary screen)
- Cells: Drosophila JW18 cells infected with Wolbachia
- Knock-down reagent: long dsRNA against Drosophila genes, 0.25 µg dsRNA per well of a 384-well plate
- Timing: 5 days
- Conditions: cells persistently infected with Wolbachia before knock-down; no added drug
- Detection: 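Imaged fluorescence in situ signal for Wolbachia 23S rRNA per DAPI-counted host cell, given as a robust z-score within each plate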
- Direction: Wolbachia per cell robust z: higher = more Wolbachia per host cell than the plate typical
- Rule for the call: 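Active if absolute robust z reaches 1.5 in two or more of three replicates, leaving out multi- or no-target dsRNAs, genes unexpressed in JW18 and A1 wells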
In all, the deposit lists about 24,000 reagents; below is a random part of those with a known target gene and a result. Over the whole deposit, about 1,210 (5%) got an active call. 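Inactive calls also include excluded dsRNAs with several or no targets, genes unexpressed in JW18, and well A1, regardless of score.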 A plus sign joins genes that one reagent is predicted to hit. Reagent sequences are not shown.

| Gene | DRSC id | Wolbachia per cell robust z, rep 1 | Wolbachia per cell robust z, rep 2 | Wolbachia per cell robust z, rep 3 | activity call |
| --- | --- | --- | --- | --- | --- |
| ND-ACP | DRSC08724 | 0.205 | -0.981 | -3.24 | inactive |
| CG13334 | DRSC06369 | 0.645 | -0.753 | 0.507 | inactive |
| RhoGAP19D (Rho GTPase activating protein at 19D) | DRSC20499 | 1.05 | 1.94 | 1.38 | inactive |
| RhoGAP19D (Rho GTPase activating protein at 19D) | DRSC20500 | 0.875 | 0.968 | -5.34 | inactive |
| CG13228 | DRSC06348 | -4.31 | -0.414 | -4.37 | inactive |
| CG13228 | DRSC27946 | 0.538 | -1.02 | 0.515 | inactive |
| CG5850 | DRSC02905 | -0.152 | 0.698 | 2.27 | inactive |
| CG10513 | DRSC14248 | 0.528 | 1.77 | 2.08 | inactive |
| CG6282 | DRSC10616 | -0.6 | -4.24 | -0.165 | inactive |
| CG6282 | DRSC29524 | -0.816 | 0.487 | 0.915 | inactive |
| 825-Oak + CG32213 + CG32214 + 2 more | DRSC22210 | 0.972 | -1.04 | -0.617 | inactive |
| CG32221 | DRSC09638 | -1.07 | 0.24 | -0.074 | inactive |
| ERR (estrogen-related receptor) | DRSC10840 | 0.465 | 0.454 | -0.341 | inactive |
| beat-Vb (beaten path Vb) | DRSC12940 | 0.0573 | -0.491 | 0.0418 | inactive |
| beat-Vb (beaten path Vb) | DRSC14844 | -1.44 | -0.736 | -1.42 | inactive |
| beat-Vb (beaten path Vb) | DRSC14845 | 0.198 | 0.616 | -1.64 | inactive |
| CG4716 | DRSC06884 | -0.405 | 0.499 | -1.37 | inactive |
| CG4716 | DRSC26611 | 0.733 | 0.102 | -6.34 | inactive |
| CG33922 | DRSC38939 | -1.19 | -1.24 | -0.445 | inactive |
| boly (borrelly) | DRSC21629 | 0.809 | 0.824 | -1.53 | inactive |
| mt:lrRNA (mitochondrial large ribosomal RNA) | DRSC40582 | -2.14 | 0.34 | 0.704 | inactive |
| CG7611 | DRSC11840 | -1.21 | 0.0928 | 0.723 | inactive |
| CG30050 | DRSC05342 | 0.728 | 1.98 | 0.754 | inactive |
| Kua | DRSC02100 | 0.156 | 0.187 | 0.718 | inactive |
| Tak1 (TGF-beta activated kinase 1) | DRSC20390 | -1.12 | -0.194 | -1.22 | inactive |
| Tak1 (TGF-beta activated kinase 1) | DRSC20561 | -0.935 | -1.25 | -3.15 | inactive |
| Tak1 (TGF-beta activated kinase 1) | DRSC20562 | -0.26 | -0.0216 | -7.9 | inactive |
| CG8087 | DRSC16375 | -0.214 | 1.37 | 0.234 | inactive |
| CG8087 | DRSC26924 | -0.223 | 0.911 | -0.509 | inactive |
| CG10254 | DRSC14153 | 0.00982 | -0.443 | -0.176 | inactive |
| CG10254 | DRSC29495 | -1.5 | -1.04 | -0.473 | inactive |
| CG34282 | DRSC16298 | -0.103 | 0.568 | -0.425 | inactive |
| Uba1 (Ubiquitin activating enzyme 1) | DRSC07567 | -1.81 | -4.9 | 0.874 | active |
| Uba1 (Ubiquitin activating enzyme 1) | DRSC28350 | -0.537 | -0.216 | 0.368 | inactive |
| Rad51D (Rad51 recombinase D) | DRSC06840 | 0.187 | -0.609 | -0.0718 | inactive |
| CG42260 + asRNA:CR30267 | DRSC03953 | -1.17 | -0.479 | -1.14 | inactive |
| Prx5 + CG7215 | DRSC16214 | 0.672 | -0.456 | 0.689 | inactive |
| Prx5 + CG7215 | DRSC16215 | -1.58 | -0.492 | 0.0232 | inactive |
| Nt5a (5' nucleotidase A) | DRSC08561 | 0.173 | 0.228 | -0.345 | inactive |
| beat-IIIa (beaten path IIIa) | DRSC01577 | 0.342 | -0.623 | 0.0514 | inactive |
| beat-IIIa (beaten path IIIa) | DRSC02178 | 1.4 | -5.19 | 1.29 | inactive |
| beat-IIIa (beaten path IIIa) | DRSC41360 | -0.398 | -0.176 | -2.6 | inactive |
| Acp63F (Accessory gland protein 63F) | DRSC08137 | 1.34 | 1.04 | -2.32 | inactive |
| Pnn (Pinin) | DRSC16415 | -0.654 | 0.306 | -0.329 | inactive |
| CG7271 + term | DRSC30034 | -2.92 | -0.891 | 0.338 | inactive |
| Mlh1 | DRSC07473 | 0.384 | -0.783 | -0.201 | inactive |
| CG12971 | DRSC11681 | -0.24 | -0.0513 | 1.01 | inactive |
| CG12971 | DRSC23893 | -0.65 | 0.706 | 1.09 | inactive |
| crok (crooked) | DRSC02593 | 0.139 | 1.13 | -2.06 | inactive |
| crok (crooked) | DRSC21349 | 0.408 | 0.606 | 0.197 | inactive |
| crok (crooked) | DRSC29822 | -0.913 | -1.48 | 0.611 | inactive |
| rtet (tetracycline resistance) | DRSC14160 | -0.922 | -0.807 | -7.92 | inactive |
| lap (like-AP180) | DRSC12628 | 0.274 | 0.871 | 0.626 | inactive |
| lap (like-AP180) | DRSC28215 | 1.04 | 0.0136 | 0.117 | inactive |
| CG8435 | DRSC07179 | 1.16 | -0.406 | 1.73 | inactive |
| CG8435 | DRSC29713 | 0.461 | 0.176 | -3.24 | inactive |
| scaf (scarface) | DRSC04849 | -0.599 | 0.547 | 0.526 | inactive |
| CG32295 | DRSC23259 | 0.675 | -1.6 | -0.763 | inactive |
| AstC (Allatostatin C) | DRSC02403 | -0.468 | -1.17 | -0.609 | inactive |
| CG31288 | DRSC14667 | -1.83 | 0.952 | -4 | active |
| CG31288 | DRSC27373 | -0.054 | -0.686 | -0.296 | inactive |
| Ptp61F (Protein tyrosine phosphatase 61F) | DRSC08683 | 0.924 | 1.41 | -0.279 | inactive |
| Ptp61F (Protein tyrosine phosphatase 61F) | DRSC28719 | -2.77 | -2.27 | -0.576 | active |
| btv (beethoven) | DRSC01615 | -1.5 | 0.875 | -0.13 | inactive |
| btv (beethoven) | DRSC02449 | -0.931 | -1.4 | -2.02 | inactive |
| CG17028 | DRSC10239 | 0.171 | -0.385 | 0.235 | inactive |
| CG17028 | DRSC29850 | 0.446 | -1.9 | -1.14 | inactive |
| CG17028 | DRSC41604 | 0.921 | 0.721 | -1.23 | inactive |
